Measured values from several laboratories, pooled; numbers as filed in NIAID ChemDB.

Shared fields: tests in culture; species: Herpes simplex virus 2; method: plaque count; read-out: EC50

Neighbouring rows are from separate reports.

SMILES	cells	strain or isolate	value
Nc1nc2c(ncn2COCCO)c(=O)[nH]1	VERO	72	0.3 µM
O=c1[nH]c(=S)n([C@H]2C[C@H](O)[C@@H](CO)O2)cc1Br	MRC-5	G	1.4 µM
CCCCCCCCCCCCCCCCOP(=O)(O)CO[C@H](CO)Cn1ccc(N)nc1=O	HFF	G	0.6 µM
Nc1ccn(C[C@H]2COP(=O)(O)CO2)c(=O)n1	MRC-5	-	11.2 µM
Cn1cc(C(=O)NCc2ccc(Cl)cc2)c(=O)c2cc(CN3CCOCC3)ccc21	HFF	13076 (WILD TYPE)	1.8 µM
Nc1nc2c(ncn2CCCCO)c(=O)[nH]1	VERO	B4327 UR2	13 µM
O=c1[nH]c(=O)n([C@@H]2O[C@H](CO)[C@@H](O)[C@@H]2O)cc1I	CCRF-HSB-2	MS	30.8 µM
COc1cc(OC)c(OC)cc1/C=N/N=C(/N)NO.Cc1ccc(S(=O)(=O)O)cc1	VERO	G	>50 µM
Nc1nc2c(ncn2CCC(CO)CO)c(=O)[nH]1	HEL	186	2.7 µg/mL
COc1ccc(OC)c(/C=N/N=C(/N)NO)c1.Cc1ccc(S(=O)(=O)O)cc1	VERO	G	50 µM
O=C(NCc1ccc(Cl)cc1)c1cn2c3c(cc(CN4CCOCC4)cc3c1=O)OC(c1cccnc1)C2	HFF	Heeter (wild type)	9.8 µM
NCC(CO)OCn1cnc2c(=O)[nH]c(N)nc21	VERO	G	100 µM
Nc1nc(=S)n([C@@H]2O[C@H](CO)[C@@H](O)[C@@H]2O)cc1Br	MRC-5	G	178 µM
Cn1cc(C(=O)NCc2ccc(Cl)cc2)c(=O)c2cc(CN3CCOCC3)ccc21	VERO	186	2.3 µM
Nc1ccn(C[C@@H](CO)OCP(=O)(O)O)c(=O)n1	MRC-5	-	13.2 µM
Nc1nc2c(ncn2CC(CO)CCO)c(=O)[nH]1	VERO	72	10 µM
O=c1[nH]cnc2c1ncn2OCCOCP(=O)(O)O	MRC-5	MS	>340 µg/mL
C/C(=N\NC(=S)N(C)C1CC2CCC1CC2)c1ccccn1	BHK-21/4	X-79	0.11 µg/mL
O=c1[nH]c(=O)n([C@@H]2O[C@H](CO)[C@@H](O)[C@@H]2F)cc1I	CCRF-HSB-2	MS	0.16 µM
Nc1ccn([C@@H]2O[C@H](CO)[C@@H](O)[C@@H]2O)c(=O)n1	VERO	MS	0.2 µM
Fc1cccc(-c2cc3ccccn3c2)c1	VERO	186	>100 µM
Cc1cccc(C)c1N(CC(=O)Nc1ccc(-c2ncon2)cc1)C(=O)C1CCS(=O)(=O)CC1	HEF	2 (G)	0.028 µM
Cc1cn(N2C[C@H](CO)[C@H]2CO)c(=O)[nH]c1=O	VERO	-	>10 µg/mL
O=C(O)CP(=O)(O)O	HEL	UW-268	39 µM
O=C(NCc1ccc(Cl)cc1)c1c[nH]c2c(F)cccc2c1=O	-	3 isolates	23 µM
Nc1nc2c(ncn2COCCO)c(=O)[nH]1	HEL	UW-268	0.67 µM
COc1ccc(/C=N/N=C(/N)NO)c(OC)c1OC.Cc1ccc(S(=O)(=O)O)cc1	VERO	G	>50 µM
CC(=O)c1c(-c2ccc(Cl)c(Cl)c2)cc2ccccn12	VERO	186	20 µM
C[C@@H](c1ccccc1)N(CC(=O)Nc1ccc(-c2csc(N)n2)cc1)C(=O)c1ccncc1	BHK-21/C13	333	0.1 µM
Cc1cn([C@@H]2O[C@H](CO)[C@H]2CO)c(=O)[nH]c1=O	HFF	JEN	0.5 µg/mL
CC/C=C/C/C=C/C/C=C/CCCCCCCC(=O)OCC(CO[C@@H]1O[C@H](CO)[C@H](O)[C@H](O)[C@H]1O)OC(=O)CCCCCCC/C=C\C/C=C\CCCCC	VERO	186	<50 µg/mL
O=c1[nH]c(=S)n([C@H]2C[C@H](O)[C@@H](CO)O2)cc1Cl	MRC-5	G	72.1 µM
CC[C@H](C)[C@H](N)[C@H](O)n1nc(C)c2c(Cl)c3cc(OC)ccc3nc21	VERO	-	0.8 µg/mL
CC(=O)OC[C@H]1[C@H](COC(C)=O)[C@@H](CO)O[C@H]1n1cnc2c(N)ncnc21	MEF	X-79	238 µM
O=c1[nH]c(=O)n([C@@H]2O[C@H](CO)[C@@H](O)[C@@H]2F)cc1/C=C/Br	CCRF-HSB-2	MS	24 µM
CCCCCCCCCCCCOCCCOP(=O)(O)CO[C@H](CO)Cn1ccc(N)nc1=O	HFF	SR	0.7 µM
CCCCCCCC/C=C\CCCCCCCC(=O)OCC(CO[C@@H]1O[C@H](CO)[C@@H](O)[C@H](O)[C@H]1O)OC(=O)CCCCCCC/C=C\CCCCCCCC	VERO	186	>50 µg/mL
Nc1nc2c(ncn2CCC(O)CO)c(=O)[nH]1	VERO	72	12 µM
CCCCCCCC/C=C\CCCCCCCCOCCOP(=O)(O)CO[C@H](CO)Cn1ccc(N)nc1=O	HFF	SR	0.07 µM
CCCCCCCCCCCCCCCCCCCCCC(=O)OC(COC(=O)CCCCCCCCCCCCCCCCC)CO[C@@H]1O[C@H](CO)[C@@H](O)[C@H](O)[C@H]1O	VERO	186	>50 µg/mL
[O-][n+]1onc2ncnc(N3CC[N+]4(CC3)CC[N+]3(CCN(c5ncnc6no[n+]([O-])c56)CC3)CC4)c21	GMK	US	20.4 µM
Cc1cn([C@@H]2O[C@H](CO)[C@@H](O)[C@@H]2F)c(=O)[nH]c1=O	CCRF-HSB-2	MS	0.11 µM
CC/C=C/C/C=C/C/C=C/CCCCCCCC(=O)OCC(CO[C@@H]1O[C@H](CO)[C@@H](O)[C@H](O)[C@H]1O)OC(=O)CCCCCCC/C=C/C/C=C/C/C=C/CC	VERO	186	<50 µg/mL
Nc1nc2c(ncn2CCCCO)c(=O)[nH]1	VERO	91075 (acyclovir-resistant)	>250 µM
CCCCCCCC/C=C\CCCCCCCC(=O)OC(COC(=O)CCCCCCCCCCC)CO[C@@H]1O[C@H](CO)[C@@H](O)[C@H](O)[C@H]1O	VERO	186	>50 µg/mL
CC(C)Oc1ccccc1CNC(=O)c1ccc2cnccc2n1	HFF	E194	0.6 µM
CCCCCCCC/C=C\CCCCCCCOCCOP1(=O)CO[C@@H](Cn2ccc(N)nc2=O)CO1	HFF	SR	0.04 µM
CCCCCCCCCCCCCCCCCCOCCCOP1(=O)CO[C@@H](Cn2ccc(N)nc2=O)CO1	MRC-5	-	0.28 µM
C/C(=N\NC(=S)N(C)C)c1ccccn1	BHK-21/4	X-79	0.17 µg/mL
CCCCCCCCCCCCCCCCCCCCCC(=O)OCC(CO[C@@H]1O[C@H](CO)[C@@H](O)[C@H](O)[C@H]1O)OC(=O)CCCCCCCCCCCCC	VERO	186	>50 µg/mL
Nc1ccn(C[C@@H](CO)OCP(=O)(O)O)c(=O)n1	MRC-5	8702 (TK+)	8.3 µM
CCCCCCCCCCCCCCCCCCOCCCOP1(=O)CO[C@@H](Cn2ccc(N)nc2=O)CO1	HFF	MS	0.2 µM
CCc1cn([C@@H]2O[C@H](CO)[C@@H](O)[C@@H]2F)c(=O)[nH]c1=O	CCRF-HSB-2	MS	0.62 µM
Nc1nc2c(ncn2CC[C@@H](O)CO)c(=O)[nH]1	HEL	91075	5.9 µM
CC(C)OC(=O)c1c(C(C)C)cc2ccccn12	VERO	186	50–100 µM
Nc1nc2c(ncn2COC(CO)CO)c(=O)[nH]1	VERO	G	0.9–1.8 µg/mL
Nc1nc2c(ncn2C[C@]2(CO)C[C@H]2CO)c(=O)[nH]1	MRC-5	186	>100 µg/mL
C/C(=N\NC(=S)NC12CC3CC(CC(C3)C1)C2)c1ccccn1	BHK-21/4	X-79	0.15 µg/mL
Nc1nc2c(ncn2OCC2COP(=O)(O)CO2)c(=O)[nH]1	MRC-5	MS	49 µg/mL
CCCCCCCC/C=C\CCCCCCCC(=O)OC(COC(=O)CCCCCCCCCCCCCCCCCCCCC)CO[C@@H]1O[C@H](CO)[C@@H](O)[C@H](O)[C@H]1O	VERO	186	>50 µg/mL

A second listing of 3 rows from above:

SMILES | cells | strain or isolate | value
O=c1[nH]c(=S)n([C@H]2C[C@H](O)[C@@H](CO)O2)cc1Br | MRC-5 | G | 1.4 µM
O=c1[nH]c(=O)n([C@@H]2O[C@H](CO)[C@@H](O)[C@@H]2O)cc1I | CCRF-HSB-2 | MS | 30.8 µM
Nc1nc2c(ncn2CCC(CO)CO)c(=O)[nH]1 | HEL | 186 | 2.7 µg/mL

Blank or dashed fields: not listed here. a–b is a range or a potency band. ECn is the concentration giving n% inhibition of infection, replication or growth.